Data source: PubChem BioAssay AID624099 (ICCB-Longwood, 2012)
Test: 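Human genes that papillomavirus E2 requires to repress the HPV18 LCR promoter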 (primary screen). System: human C33A cervical carcinoma cells (HPV-negative) stably expressing BPV1 E2 and an HPV18 LCR luciferase reporter. Reagent: siRNA pool against human genes, 40 nM. Time to read-out: 72 h. Read-out: 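HPV18 LCR reporter light per well, converted to plate-wise z-scores that exclude control wells, and averaged over triplicate plates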. Scale: mean z-score and z-score: higher = stronger reporter signal, weaker E2 silencing. Hit rule: 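Mean z ≥ 2 together with z ≥ 2 in two or more of the three replicates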.
Here is one part, drawn at random, of about 21,000 reagents tested. 497 of them (2.4%) were called active. 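Higher z means weaker E2 silencing; only reporter increases were scored, and knock-downs that hurt cell survival may mask genuine repressor factors.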 Reagents against one gene are numbered here.

| gene | reagent no. | mean z-score | z-score, replicate A | z-score, replicate B | z-score, replicate C | call |
| --- | --- | --- | --- | --- | --- | --- |
| ZNF761 | 1 | 0.3 | -0.17 | 0.36 | 0.7 | inactive |
| FREM1 | 1 | -1.79 | -1.29 | -2.13 | -1.94 | inactive |
| PRDM11 | 1 | -0.06 | 0.4 | -0.15 | -0.43 | inactive |
| KRT84 | 1 | 0.89 | 0.84 | 1.1 | 0.73 | inactive |
| TMA7 | 1 | 2.3 | 2.95 | 1.84 | 2.12 | active |
| ASB18 | 1 | -0.22 | 0.3 | -0.59 | -0.36 | inactive |
| B3GNT5 | 1 | 0.71 | 0.22 | 0.62 | 1.27 | inactive |
| ACTL7A | 1 | -0.29 | -0.4 | -0.23 | -0.25 | inactive |
| KRT31 | 1 | 0.69 | 0.64 | 0.76 | 0.68 | inactive |
| SNRPD2 | 1 | -1.17 | -1.61 | -1.24 | -0.66 | inactive |
| LOC400796 (retired record) | 1 | -0.79 | -0.64 | -0.83 | -0.9 | inactive |
| ATP6V1D | 1 | 1.28 | 1.12 | 1.25 | 1.47 | inactive |
| PSG4 | 1 | 0.55 | 0.57 | 0.37 | 0.72 | inactive |
| MYL2 | 1 | -0.18 | -0.46 | -0.03 | -0.03 | inactive |
| CENPK | 1 | -0.44 | -0.75 | -0.87 | 0.31 | inactive |
| SIX1 | 1 | -1.06 | -0.85 | -1.27 | -1.05 | inactive |
| JPH4 | 1 | 0.19 | 0.1 | 0.02 | 0.44 | inactive |
| PKP3 | 1 | -0.55 | -0.79 | -0.63 | -0.23 | inactive |
| CXXC5 | 1 | -0.62 | -0.16 | -1.03 | -0.67 | inactive |
| C9orf78 | 1 | -0.05 | 0.02 | 0.19 | -0.37 | inactive |
| CYP2C19 | 1 | -0.32 | -0.26 | -0.46 | -0.25 | inactive |
| TEKT3 | 1 | 0.61 | 0.34 | 0.75 | 0.73 | inactive |
| TPTEP1 | 1 | 0.48 | 1.1 | 0.15 | 0.21 | inactive |
| CNST | 1 | -2.02 | -1.97 | -1.95 | -2.15 | inactive |
| APLNR | 1 | -0.06 | 0.2 | -0.34 | -0.05 | inactive |
| MGAT4D | 1 | -0.07 | -0.08 | 0.08 | -0.21 | inactive |
| LOC391749 (retired record) | 1 | -0.89 | -0.71 | -1.01 | -0.96 | inactive |
| SLC25A27 | 1 | -1.44 | -1.38 | -1.5 | -1.46 | inactive |
| HNRNPA3 | 1 | 0.58 | 0.18 | 0.72 | 0.84 | inactive |
| HYI | 1 | 1.08 | 0.77 | 1.05 | 1.42 | inactive |
| SNRPN | 1 | -1.21 | -1.22 | -1.21 | -1.2 | inactive |
| DCAF17 | 1 | -0.01 | -0.28 | -0.04 | 0.28 | inactive |
| PDE4B | 1 | -0.37 | -0.17 | -0.48 | -0.46 | inactive |
| NCOA6 | 1 | 0.35 | 0.32 | 0.37 | 0.35 | inactive |
| CH25H | 1 | 0.44 | 0.52 | 0.42 | 0.38 | inactive |
| SH3GLB1 | 1 | 1.27 | 0.97 | 0.7 | 2.13 | inactive |
| HNRNPA3P5 | 1 | -1.12 | -0.97 | -0.78 | -1.6 | inactive |
| ZNHIT6 | 1 | 1.12 | 1.21 | 1.04 | 1.1 | inactive |
| CFAP126 | 1 | 0.3 | 0.42 | -0.02 | 0.49 | inactive |
| EGR3 | 1 | -0.43 | -0.28 | -0.74 | -0.28 | inactive |
| F10 | 1 | -1.18 | -1 | -1.3 | -1.24 | inactive |
| RNF14 | 1 | -0.3 | -0.28 | -0.34 | -0.28 | inactive |
| RGSL1 | 1 | 0.21 | 0.38 | 0.23 | 0.03 | inactive |
| RGSL1 | 2 | -0.55 | -0.81 | -0.7 | -0.16 | inactive |
| RPL34-DT | 1 | -1.95 | -2.32 | -1.75 | -1.78 | inactive |
| PPP1R11 | 1 | -0.32 | -0.43 | -0.13 | -0.39 | inactive |
| ANXA5 | 1 | 0.09 | -0.07 | 0.49 | -0.15 | inactive |
| SLC25A10 | 1 | 0.25 | 0.29 | -0.08 | 0.52 | inactive |
| LOC389403 (retired record) | 1 | 4.93 | 4.48 | 5.07 | 5.23 | active |
| PZP | 1 | -0.26 | -0.42 | -0.17 | -0.19 | inactive |
| FAM9B | 1 | -0.32 | -0.86 | 0.03 | -0.12 | inactive |
| HSPBP1 | 1 | -1.37 | -1.38 | -1.18 | -1.56 | inactive |
| FZD6 | 1 | 0.27 | 0.4 | 0.1 | 0.31 | inactive |
| GREB1L | 1 | 0.88 | 0.75 | 1.14 | 0.76 | inactive |
| RTN3P1 | 1 | 0.37 | 0.29 | 0.36 | 0.47 | inactive |
| SPATA6L | 1 | -0.27 | -0.08 | -0.38 | -0.34 | inactive |
| TRPV5 | 1 | -0.65 | -0.83 | -0.48 | -0.64 | inactive |
| BCAR1 | 1 | -1.57 | -1.62 | -1.75 | -1.33 | inactive |
| NDUFB6 | 1 | -0.39 | -0.56 | -0.13 | -0.48 | inactive |
| CCL3L1 | 1 | -0.94 | -1.04 | -0.96 | -0.82 | inactive |
| RFPL1 | 1 | -0.01 | -0.13 | 0.17 | -0.06 | inactive |
| NELFCD | 1 | -1.02 | -0.62 | -1.33 | -1.12 | inactive |
| CWC27 | 1 | 0.15 | 0.06 | 0.42 | -0.01 | inactive |
| HOXC13 | 1 | 1.63 | 1.87 | 1.47 | 1.55 | inactive |
| MYBPHL | 1 | 0.36 | 0.29 | 0.79 | 0.02 | inactive |
| OR2W1 | 1 | 2.18 | 2.11 | 2.2 | 2.24 | active |
| MPST | 1 | -0.94 | -1.19 | -0.86 | -0.78 | inactive |
| DDX3X | 1 | -0.44 | -0.22 | -0.52 | -0.59 | inactive |
| SPRR4 | 1 | -0.17 | -0.43 | -0.31 | 0.24 | inactive |
| MYOF | 1 | 1.95 | 1.9 | 1.58 | 2.36 | inactive |
| SCGB2A1 | 1 | 0 | -0.37 | -0.04 | 0.42 | inactive |
| EFHC1 | 1 | 0.43 | 0.39 | 0.39 | 0.5 | inactive |
| MPP2 | 1 | 0.43 | 0.25 | 0.28 | 0.77 | inactive |

As entered above:
Value of HNRNPA3 under “mean z-score”: 0.58
For “z-score, replicate B”, PPP1R11 shows -0.13
B3GNT5, call = inactive
Value of MPP2 under “z-score, replicate A”: 0.25
